A mixed list of measured activities; the numbers were collected in NIAID ChemDB.

Shared fields: growth or infection tests; agent: Hepatitis C virus; read by: replicon; read-out: EC50

An empty or dashed field is not shown. Lines come from different laboratories, so protocols vary. ECn: concentration that inhibits the pathogen or its effect by n%. a–b is a range or a potency band.

SMILES,cell line,strain or isolate,setting,result
O=C(Cc1c(Cl)ccc(Cl)c1Cl)N/N=C/c1ccccc1OS(=O)(=O)c1ccc(C(F)(F)F)cc1,Huh7,-,-,>50 µM
CC1CCC(C(=O)N(c2cc(-c3ccc(NC(=O)c4ncc[nH]4)cc3)sc2C(=O)O)C(C)C)CC1,-,1b,-,<0.5 µM
COc1ccc(-c2cnc3nc(N)nc(N4CCN(S(=O)(=O)c5ccccc5)CC4)c3n2)cc1OC,Huh7,HCV replicon,-,<0.3 µM
CC1CCC(C(=O)N(CC2CC2)c2cc(-c3ccc(NC(=O)c4ccccn4)cc3)sc2C(=O)O)CC1,-,1a,-,<0.5 µM
COc1cccc(CC(=O)N/N=C/c2ccccc2OS(=O)(=O)c2ccc(Oc3ccccc3)nc2)c1,Huh7,-,-,<5 µM
CC(C)NC(=O)c1c(-c2ccc(F)cc2)oc2cc(NS(C)(=O)=O)c(OC(C)C)cc12,Huh7,-,-,<10 µM
COc1cccc(CC(=O)N/N=C/c2ccccc2OS(=O)(=O)c2ccc(C(F)(F)F)cc2)c1OC,Huh7,-,-,<5 µM
Cc1ccncc1C(=O)Nc1ccc(-c2cc(N(C(=O)C3CCC(C)CC3)C(C)C)c(C(=O)O)s2)cc1,-,1a,-,<0.5 µM
COc1cc2c(=O)c(C(=O)c3ccc(C)cc3)cn(Cc3ccc(C(C)(C)C)cc3)c2cc1OC,-,-,-,11.7 µM
COc1ccc(-c2cnc3nc(N)nc(N4CCN(CC(=O)N5CCCC5)CC4)c3n2)cc1OC,Huh7,HCV replicon,-,<0.3 µM
Nc1ncnc2c1c(-c1ccc(-c3cc(-c4ccccn4)nc(-c4ccccn4)c3)cc1)cn2[C@H]1C[C@H](O)[C@@H](CO)O1,Huh7,1b,genotype 1b,0.15 µM
CC1CCC(C(=O)N(c2cc(-c3ccc(NC(=O)c4cccs4)cc3)sc2C(=O)O)C(C)C)CC1,-,1a,-,<0.5 µM
O=C(Cc1ccccc1)N/N=C/c1ccccc1OCc1cccc2ccccc12,Huh7,-,-,5–50 µM
COc1ccc(-c2cnc3nc(N)nc(N4CCN(S(=O)(=O)Cc5ccccc5)CC4)c3n2)cc1OC,Huh7,HCV replicon,-,<0.3 µM
COc1cccc(CC(=O)N/N=C/c2ccccc2OS(=O)(=O)c2ccc(Oc3cccnc3)cc2)c1,Huh7,-,-,5–50 µM
Fc1cccc(-c2cc3cn(Cc4nnc(-c5ccc(Cl)cc5)s4)ccc-3n2)c1F,-,1b,-,<100 µM
CCN(CC)C(=O)N1CCN(c2nc(N)nc3ncc(-c4ccc(OC)c(OC)c4)nc23)CC1,Huh7,HCV replicon,-,<0.3 µM
Nc1ncnc2c1c(C#Cc1ccc(-c3ccccn3)nc1)cn2[C@H]1C[C@H](O)[C@@H](CO)O1,Huh7,1b,genotype 1b,1 µM
COc1ccc(N2CCN(c3nc(N)nc4ncc(-c5ccc(OC)c(OC)c5)nc34)CC2)cc1,Huh7,HCV replicon,-,0.3–1 µM
COc1ccc2c(c1)CC(C(=O)N1C3CCC1CN(C)C3)Cn1c-2c(C2CCCCC2)c2ccc(C(=O)NS(=O)(=O)N(C)C)cc21,-,-,-,0.001–0.5 µM
CCc1cc2c(C(=O)NC)c(-c3ccc(F)cc3)oc2cc1C(C)=O,Huh7,-,-,<1 µM
OC[C@H]1O[C@@H](n2cnc3c(CCSC4=NCCS4)ncnc32)[C@H](O)[C@@H]1O,Huh7 (MT-4),1b,genotype 1b,>100 µM
CNC(=O)c1c(-c2ccc(Cl)c(F)c2)oc2ccc(OC)cc12,Huh7,-,-,<10 µM
O=C(Cc1cccc(Cl)c1)N/N=C/c1ccncc1OS(=O)(=O)c1ccc(C(F)(F)F)cc1,Huh7,-,-,<5 µM
CC1CCC(C(=O)N(c2cc(-c3ccc(NC(=O)c4cocn4)cc3)sc2C(=O)O)C(C)C)CC1,-,1a,-,>0.5 µM
COc1cccc(OCC(=O)N/N=C/c2ccccc2OS(=O)(=O)c2ccc(C(F)(F)F)cc2)c1,Huh7,-,-,<5 µM
CNC(=O)c1c(-c2ccc(F)cc2)oc2cc(-c3cc(C)no3)c(OC(C)C)cc12,Huh7,-,-,<30 µM
CC1CCC(C(=O)N(c2cc(-c3ccc(NC(=O)c4cscn4)cc3)sc2C(=O)O)C(C)C)CC1,-,1b,-,<0.5 µM
COc1ccc2c(c1)C=C(C(=O)N1C3CCC1CN(C)C3)Cn1c-2c(C2CCCCC2)c2ccc(C(=O)NS(=O)(=O)C3CC3)cc21,-,-,-,0.001–0.5 µM
Fc1ccc(-c2cc(Cn3ccc4c(C5CCCCC5)c(-c5cccc(F)c5F)nc-4c3)on2)c(C(F)(F)F)c1,-,1b,-,<100 µM
COc1cccc2c1C=C(C(=O)N1CC3CCC(C1)N3C(=O)OC(C)(C)C)Cn1c-2c(C2CCCCC2)c2ccc(C(=O)NS(=O)(=O)N(C)C)cc21,-,-,-,0.001–0.5 µM
CC1CCC(C(=O)N(c2cc(-c3ccc(NC(=O)c4cscn4)c(Cl)c3)sc2C(=O)O)C(C)C)CC1,-,1b,-,<0.5 µM
COc1ccc(-c2cnc3nc(N)nc(N4CCN(C(=O)N5CCCC5)CC4)c3n2)cc1OC,Huh7,HCV replicon,-,<0.3 µM
Fc1cccc(-c2cc3cn(Cc4cn(-c5ccc(Cl)cc5)nn4)ccc-3n2)c1F,-,1b,-,<100 µM
CNC(=O)c1c(-c2ccc(F)cc2)oc2cc(N3CCOCC3)c(OCCC#N)cc12,Huh7,-,-,<10 µM
Fc1ccccc1-c1cc2ccn(Cc3ccc(OC(F)(F)F)cc3)cc-2n1,-,1b,-,<100 µM
COc1cccc2c1C=C(C(=O)N1CC3CCC(C1)N3C)Cn1c-2c(C2CCCCC2)c2ccc(C(=O)NS(=O)(=O)N(C)C)cc21,-,-,-,0.001–0.5 µM
CS(=O)(=O)Nc1ccc2c(c1)S(=O)(=O)N=C(C1=C(O)C3C([C@@H]4CC[C@H]3C4)N(Cc3nccs3)C1=O)N2,-,1b,-,1 µM
O=[N+]([O-])c1ccc(-c2ccc(Cl)cc2)c(COc2ccc(-c3[nH]c4cnccc4c3C3CCCCC3)cc2)c1,-,1b,-,<100 µM
CNC(=O)c1c(-c2ccc(F)cc2)oc2cc(N3CCOCC3)c(OCc3nccs3)cc12,Huh7,-,-,<1 µM
Cc1ccc(C(=O)Nc2ccc(-c3cc(N(C(=O)C4CCC(C)CC4)C(C)C)c(C(=O)O)s3)cc2)o1,-,1b,-,<0.5 µM
COc1ccc(-c2cnc3nc(N)nc(N4CCN(C(=O)Nc5cccc(C(F)(F)F)c5)CC4)c3n2)cc1OC,Huh7,HCV replicon,-,<0.3 µM
CNC(=O)c1c(-c2ccc(F)cc2)oc2cc(NS(C)(=O)=O)c(-c3ccco3)cc12,Huh7,-,-,<1 µM
O=C(Cc1cc(C(F)(F)F)ccc1C(F)(F)F)N/N=C/c1ccccc1OS(=O)(=O)c1ccc(C(F)(F)F)cc1,Huh7,-,-,<5 µM